{"source": "patent EP4282435A1", "about": "“FORMULATIONS OF ACTIVE PHARMACEUTICAL INGREDIENTS AND EXCIPIENTS IN ICELLS VIA HYDROPHOBIC ION PAIRING” (Danmarks Tekniske Universitet, priority 2022, dated 2023)", "test": "Fluorescence spectroscopy of ICG and ICG HIP complexes in ethanol", "format": "physicochemical", "key": {"[1]": {"conditions": "free molecule or in a HIP complex"}}, "data": [{"smiles": "CC1(C)C(/C=C/C=C/C=C/C=C2\\N(CCCCS(=O)(=O)O)c3ccc4ccccc4c3C2(C)C)=[N+](CCCCS(=O)(=O)[O-])c2ccc3ccccc3c21", "note": "[ICG, indocyanine green]", "values": [{"measurement": "emission maxima", "setting": "[1]", "result": 822, "unit": "nm"}, {"measurement": "excitation maxima", "setting": "[1]", "result": 785, "unit": "nm"}, {"measurement": "concentration at maximum emission intensity", "setting": "range 0.0006 - 1 mg/mL, self-quenching above", "result": 0.1, "unit": "mg/mL"}]}]}
